Assays:
HtrA = assay: In vitro cleavage of recombinant E-Cadherin by HtrA (Western blot); assay type: biochemical, Helicobacter pylori; conditions: 5 ng/µl HtrA, 16 h, MMP-inhibitor II 5 x IC50 (Fig. 11E)
Description: For in vitro cleavage studies, recombinant E-Cadherin, EGFR and JAM chimera, IgA or Casein, (R&D Systems, Wiesbaden, Germany) were incubated with HtrA^wt, HtrA^S205A or MMP7 in 50 mM HEPES (pH 7.4) at 37°C for 16 h. Where indicated, HHI or MMP inhibitor II were added. Reactions were stopped by boiling in Laemmli buffer, followed by 8% SDS-PAGE and Western blotting.

MKN-28 cells = assay: Hp-induced ectopic E-Cadherin shedding in infected cells (Western blot of supernatants and lysates); conditions: 150 nM MMP inhibitor II (5x IC50), with or without ADAM10 siRNA (Fig. 1C)
Description: The human gastric adenocarcinoma cell line MKN-28 was grown in RPMI1640 medium (Biochrom, Berlin, Germany) and human breast cancer cells (MCF-7) in DMEM medium (Biochrom) containing 4 mM glutamine (Invitrogen, Karlsruhe, Germany]), and 10% FCS (Biowest, Nuaillé, France) in a humidified 5% CO2 (MKN-28) or 10% CO2 (MCF-7) atmosphere at 37°C. Cells were seeded in tissue culture plates 48 hours before infection and grown to confluence. 1-2 h hours prior to infection, medium was replaced by fresh serum-free media. Where indicated, cells were incubated with indicated concentrations of HHI or MMP inhibitor II (blocks MMP1, MMP3, MMP7 and MMP9) (Calbiochem, Merck , Darmstadt, Germany).
Hp strains Hp26695 and P12 were cultured on agar plates containing 10% horse serum under microaerophilic conditions at 37°C for 48 hours. For infection, bacteria were harvested in PBS Dulbecco's medium, pH 7.4, added to the host cells at a multiplicity of infection (MOI) of 50 or 100 for the indicated time periods and monitored using an inverse phase-contrast microscope (model TS 100, INTAS). To quantify bacteria translocating through cellular monolayers, MKN-28 cells were grown to confluence on filters prior to infection with Hp for 48 h. Translocating Hp were cultured and CFU were counted. All experiments were repeated 3-4 times. […]

COc1ccc(S(=O)(=O)N2CC(C)(C)CN(S(=O)(=O)c3ccc(OC)cc3)C2C(=O)NO)cc1
HtrA activity (E-Cadherin cleavage) (HtrA): did not block | Hp-mediated E-Cadherin cleavage on host cells (MKN-28 cells): neither inhibition of MMPs nor additional down-regulation of ADAM10 expression efficiently blocked
